PubChem BioAssay AID1224833 | University of Georgia | 2016
The deposit covers about 12,000 reagents; this is an unselected part. In the full data, about 5,600 (46%) got an active call. 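Active calls cover z-scores past 1 in both directions, so they include lowered as well as raised rotavirus replication.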

Test: 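Host factors restraining rotavirus as candidate antiviral genes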 (primary screen)
System: monkey MA104 kidney cells
Knock-down reagent: siRNA pool against human genes, 50 nM
Time to read-out: 48 h knock-down before infection; read 24 h after infection
Treatment: infection with rotavirus strain RV3 two days after transfection; infectious dose for this stage not given
Measured: 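Rotavirus antigen per well by fluorescent immunoassay, normalised to non-targeting control wells on each plate and given as a standard z-score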
Direction: z-score vs non-targeting control: higher = more rotavirus replication than with non-targeting control
Rule for the call: In these data the active calls have z-score vs non-targeting control at about -1 or lower, or at about 1 or higher
Calls: active = z-score beyond 1 either way; inactive = z-score within 1 of zero

target gene,z-score vs non-targeting control,call
USP14,-0.544,inactive
SLC20A2,1.33,active
OR4A5,0.992,inactive
BTN3A1,-0.04,inactive
UNC5C,0.609,inactive
ATCAY,0.0809,inactive
CCDC77,-0.694,inactive
ATL2,-0.207,inactive
OR1L4,-0.322,inactive
SLC5A6,-0.865,inactive
THADA,0.765,inactive
ASH1L,0.179,inactive
MAP3K7CL,0.957,inactive
MRPL50,-0.398,inactive
SNAP29,0.661,inactive
ZC3H7B,1.67,active
MIR1-1HG,-2.27,active
MRPL42,-0.382,inactive
CROCC,-1.27,active
HLF,2.26,active
NSA2,0.983,inactive
NAT8B,-1.93,active
TBCE,-0.0111,inactive
SERTAD3,-0.421,inactive
ANKRD12,-2.02,active
TSPO2,0.433,inactive
CHST15,-0.534,inactive
ZNF496,0.565,inactive
CCL14,0.653,inactive
NOVA1,0.212,inactive
PSTPIP2,0.244,inactive
OR51I1,0.286,inactive
PLEKHF1,-0.467,inactive
IQGAP2,-0.788,inactive
FMC1,-0.889,inactive
SLC45A1,0.547,inactive
SSX2IP,-0.0822,inactive
PSG3,-0.441,inactive
MFN2,-1.92,active
YARS2,1.49,active
C9orf72,0.934,inactive
CLASP1,-0.137,inactive
SSPOP,-0.582,inactive
RSPH14,-0.524,inactive
DEFB121,0.478,inactive

Active calls, of those listed so far:
target gene,z-score vs non-targeting control,call
SLC20A2,1.33,active
ZC3H7B,1.67,active
MIR1-1HG,-2.27,active
CROCC,-1.27,active
HLF,2.26,active
NAT8B,-1.93,active
ANKRD12,-2.02,active
MFN2,-1.92,active
YARS2,1.49,active
